{"source": "PubChem BioAssay AID624099 (ICCB-Longwood, 2012)", "screen": "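Human genes that papillomavirus E2 requires to repress the HPV18 LCR promoter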 (primary screen)", "cell system": "human C33A cervical carcinoma cells (HPV-negative) stably expressing BPV1 E2 and an HPV18 LCR luciferase reporter", "reagents": "siRNA pool against human genes, 40 nM", "time to read-out": "72 h", "read-out": "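Per-well luciferase luminescence, z-scored on each plate against the plate mean and SD with control wells left out, then averaged across three replicate plates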", "direction": "mean z-score and z-score: higher = stronger reporter signal, weaker E2 silencing", "rule for the call": "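Mean z ≥ 2 together with z ≥ 2 in two or more of the three replicates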", "note": "The deposit covers about 21,000 reagents; this is a part drawn at random. 497 of all reagents (2.4%) were called active. 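Higher z means weaker E2 silencing; only reporter increases were scored, and knock-downs that hurt cell survival may mask genuine repressor factors.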 The numbers tell different reagents against one gene apart."}
{"gene symbol":"LOC441081","reagent no.":1,"mean z-score":0.05,"z-score, replicate A":-0.08,"z-score, replicate B":0.27,"z-score, replicate C":-0.03,"call":"inactive"}
{"gene symbol":"TBC1D9B","reagent no.":1,"mean z-score":-1.02,"z-score, replicate A":-1.1,"z-score, replicate B":-1,"z-score, replicate C":-0.96,"call":"inactive"}
{"gene symbol":"RFPL3","reagent no.":1,"mean z-score":0.15,"z-score, replicate A":0.54,"z-score, replicate B":-0.29,"z-score, replicate C":0.21,"call":"inactive"}
{"gene symbol":"MMP3","reagent no.":1,"mean z-score":2.92,"z-score, replicate A":2.45,"z-score, replicate B":3.23,"z-score, replicate C":3.07,"call":"active"}
{"gene symbol":"FAM87A","reagent no.":1,"mean z-score":-0.11,"z-score, replicate A":-0.56,"z-score, replicate B":0.19,"z-score, replicate C":0.05,"call":"inactive"}
{"gene symbol":"EEIG1","reagent no.":1,"mean z-score":0.3,"z-score, replicate A":0.38,"z-score, replicate B":0.33,"z-score, replicate C":0.21,"call":"inactive"}
{"gene symbol":"WARS1","reagent no.":1,"mean z-score":0.84,"z-score, replicate A":0.64,"z-score, replicate B":1.11,"z-score, replicate C":0.77,"call":"inactive"}
{"gene symbol":"KRABD1","reagent no.":1,"mean z-score":0.12,"z-score, replicate A":0.3,"z-score, replicate B":0.09,"z-score, replicate C":-0.03,"call":"inactive"}
{"gene symbol":"KRABD1","reagent no.":2,"mean z-score":0.5,"z-score, replicate A":0.97,"z-score, replicate B":0.35,"z-score, replicate C":0.19,"call":"inactive"}
{"gene symbol":"DIPK2B","reagent no.":1,"mean z-score":1.32,"z-score, replicate A":1.21,"z-score, replicate B":1.13,"z-score, replicate C":1.62,"call":"inactive"}
{"gene symbol":"SCN2B","reagent no.":1,"mean z-score":0.89,"z-score, replicate A":0.98,"z-score, replicate B":0.87,"z-score, replicate C":0.82,"call":"inactive"}
{"gene symbol":"GEMIN2","reagent no.":1,"mean z-score":0.01,"z-score, replicate A":-0.28,"z-score, replicate B":-0.08,"z-score, replicate C":0.4,"call":"inactive"}
{"gene symbol":"ZNF555","reagent no.":1,"mean z-score":-0.51,"z-score, replicate A":0.17,"z-score, replicate B":-0.76,"z-score, replicate C":-0.93,"call":"inactive"}
{"gene symbol":"PEX10","reagent no.":1,"mean z-score":0.24,"z-score, replicate A":0.53,"z-score, replicate B":0.06,"z-score, replicate C":0.12,"call":"inactive"}

Ordered by “z-score, replicate B” (low to high): some entries from above.
{"gene symbol":"TBC1D9B","reagent no.":1,"mean z-score":-1.02,"z-score, replicate A":-1.1,"z-score, replicate B":-1,"z-score, replicate C":-0.96,"call":"inactive"}
{"gene symbol":"RFPL3","reagent no.":1,"mean z-score":0.15,"z-score, replicate A":0.54,"z-score, replicate B":-0.29,"z-score, replicate C":0.21,"call":"inactive"}
